# Measured values from US5935995A, “Prodrugs for the therapy of tumors and inflammatory disorders” (Heochst Aktiengesellschaft, priority 1996, dated 1999).
# By UniProt entry, the sequences of proteins in these tests, tags left out. Where a name states a change or a piece, a line headed by the entry shows the natural chain unless it says otherwise.
# UniProt P05804: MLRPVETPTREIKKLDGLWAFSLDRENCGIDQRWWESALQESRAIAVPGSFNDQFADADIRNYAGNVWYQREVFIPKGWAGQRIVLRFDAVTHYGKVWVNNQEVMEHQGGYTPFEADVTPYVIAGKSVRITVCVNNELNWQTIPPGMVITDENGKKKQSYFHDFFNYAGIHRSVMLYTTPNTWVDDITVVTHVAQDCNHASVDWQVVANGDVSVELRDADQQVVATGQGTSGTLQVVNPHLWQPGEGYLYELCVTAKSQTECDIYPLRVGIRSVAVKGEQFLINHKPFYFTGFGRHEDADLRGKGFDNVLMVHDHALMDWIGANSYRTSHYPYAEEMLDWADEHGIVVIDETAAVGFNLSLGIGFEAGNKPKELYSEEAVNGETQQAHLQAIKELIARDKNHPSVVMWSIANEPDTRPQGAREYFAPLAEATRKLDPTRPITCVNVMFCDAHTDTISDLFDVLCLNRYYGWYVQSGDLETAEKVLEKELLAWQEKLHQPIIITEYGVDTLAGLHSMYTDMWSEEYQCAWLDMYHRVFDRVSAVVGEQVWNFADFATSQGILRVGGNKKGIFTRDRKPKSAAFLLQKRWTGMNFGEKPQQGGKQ
# Target: E. coli β-glucuronidase (Sigma) (Escherichia coli, UniProt P05804)
# Experiment: Enzymatic cleavage of F 373 on incubation with E. coli β-glucuronidase, HPLC analysis
# Settings: for peak area (HPLC): 37° C., pH 7.2, with β-glucuronidase, starting from F 373
smiles,measurement,setting,value
Cn1c(=O)oc2ccc([N+](=O)[O-])cc21,peak area (HPLC),0 min,0
same,peak area (HPLC),1 min,1.92
same,peak area (HPLC),5 min,4.75
same,peak area (HPLC),7 min,5.37
same,peak area (HPLC),10 min,5.43
same,peak area (HPLC),15 min,5.43
same,peak area (HPLC),25 min,5.70
same,peak area (HPLC),60 min,6.53
"CN(C(=O)Oc1ccc(N(CCCl)CCCl)cc1)c1cc([N+](=O)[O-])ccc1O[C@@H]1O[C@H](C(=O)O)[C@@H](O)[C@H](O)[C@H]1O [F 373, 2-[N-Methyl-N-[4-(N,N'-bis(2-chloroethyl)amino)phenyloxycarbonyl]-amino]-4-nitrophenyl-β-D-glucuronic acid]",peak area (HPLC),0 min,19.41
same,peak area (HPLC),1 min,10.46
same,peak area (HPLC),5 min,0.35
same,peak area (HPLC),7 min,0
same,peak area (HPLC),10 min,0
same,peak area (HPLC),15 min,0
same,peak area (HPLC),25 min,0
same,peak area (HPLC),60 min,0
same,enzymatic cleavage on incubation with b-glucuronidase,"cleaved to compound 7, glucuronic acid and the spacer",cleaved enzymatically
